Compound potency records, mixed from different reports. Data source: NIAID ChemDB in PubChem.

All rows: toxicity to cultured cells; cells: MT-4; read-out: CC50

Conditions beyond the fields shown may differ between rows. Blank or dashed fields: not listed here. CCn is the concentration with n% toxicity to the cells.

| smiles | method | result |
|---|---|---|
| CC(C)[C@]12C=C[C@](C)(CC1)[C@H]1C(=O)N(NC(=S)Nc3ccccc3)C(=O)[C@H]12 | MTT | 60 µM |
| Cc1cn([C@H]2O[C@@H](CO)C[C@H]2O)c(=O)[nH]c1=O | - | >100 µM |
| Cn1c(=O)cc(Oc2nc(Nc3ccc(C#N)cc3)nc(Nc3nc4ccc([N+](=O)[O-])cc4s3)n2)c2ccccc21 | MTT | 69.28 µg/mL |
| CC(C)CN(C(=O)C(=O)N(C)C)C1CN(C)CCn2c1nc(C(=O)NCc1ccc(F)cc1)c(O)c2=O | microscopy | >1 µM |
| Nc1cn([C@H]2CC[C@@H](CO)O2)c(=O)nc1N | - | 13 µM |
| Cn1c(=O)cc(Oc2nc(Nc3ccc(C#N)cc3)nc(Oc3cc(=O)n(C)c4ccccc34)n2)c2ccccc21 | MTT | 79.48 µg/mL |
| CCOP(=O)(OCC)C(N[C@@H](Cc1ccccc1)[C@H](O)CN(CC(C)C)S(=O)(=O)c1ccc(OC)cc1)c1ccc(C)cc1 | MTT | 2.47 µg/mL |
| CCc1c(Cc2cccc3ccccc23)nc(SCSC)[nH]c1=O | - | >100 µM |
| CC(=O)O[C@@H]1C2[C@]3(CC[C@@]45C[C@@]46CC[C@H](OC(=O)c4ccccc4)C(C)(C)[C@@H]6CCC5[C@]3(C)[C@@H]1OC(C)=O)CO[C@@]1(C(C)(C)O)CC[C@]2(C)O1 | luminescence | >30 µM |
| Brc1ccc(-c2nnc3sc(CC45CC6CC(CC(C6)C4)C5)nn23)cc1 | MTT | >125 µg/mL |
| CCCc1c(SC2CCCC2)c2cc(F)ccc2[nH]c1=O | - | 30 µM |
| Cc1ccc(-c2nnc3sc(CC45CC6CC(CC(C6)C4)C5)nn23)cc1 | MTT | >125 µg/mL |
| CC(C)(C)OC(=O)NCC(=O)N1CCC(=O)C1 | - | >100 µM |
| Nc1ccn([C@@H]2CC[C@H](CO)O2)c(=O)n1 | - | 20 µM |
| Cc1nc2ccccc2c(-c2ccc(Cl)cc2)c1[C@H](OC(C)(C)C)C(=O)O | - | 48 µM |
| CCCc1c(SCC2CCC2)c2cc(F)ccc2[nH]c1=O | - | 29.7 µM |
| CCOP(=O)(OCC)C(N[C@@H](Cc1ccccc1)[C@H](O)CN(CC(C)C)S(=O)(=O)c1ccc(OC)cc1)c1ccccc1 | MTT | 13.25 µg/mL |
| CSCC[C@H](C(=O)N1CCNCC1c1c[nH]c2ccccc12)N1CCCN(C(C)C)CC1 | MTT | >50 µM |
| CC1(C)c2nc(C(=O)NCc3ccc(F)cc3)c(O)c(=O)n2CCN1Cc1cnccn1 | microscopy | >1 µM |
| CC(C)(C)OC(=O)NC(Cc1ccc(OCc2ccccc2)cc1)C(=O)N1CCC(=O)C1 | - | 50 µM |
| CC1(C)c2nc(C(=O)NCc3ccc(F)cc3)c(O)c(=O)n2CCN1S(C)(=O)=O | microscopy | >1 µM |
| CC1=C[C@@H]2[C@@H]3C(=O)N(NC(=S)Nc4ccccc4)C(=O)[C@@H]3[C@H]1C[C@@H]2C(C)C | MTT | 48 µM |
| CCc1c(OC#CC2CC2)c2cc(F)ccc2[nH]c1=O | - | 13.3 µM |
| N#Cc1cc(Cl)cc(Oc2c(C(F)(F)F)ccn(CC(=O)Nc3cn[nH]c3)c2=O)c1 | MTT | 46.1 µM |
| COc1ccc(NC(=S)NN2C(=O)[C@@H]3[C@H](C2=O)[C@]2(C)C(C)=C(C)[C@@]3(C)C2C)cc1 | MTT | 55 µM |
| N#Cc1cc(Cl)cc(Oc2c(C(F)(F)F)ccn(CC(=O)Nc3ccc(Br)cc3)c2=O)c1 | MTT | 87.9 µM |
| Cc1ccccc1-c1nnc2sc(CC34CC5CC(CC(C5)C3)C4)nn12 | MTT | ≥11.5 µg/mL |
| CC1=[N+](C)N(c2ccccc2)C(=O)C1Nc1nc(Nc2ccc(C#N)cc2)nc(Oc2cc(=O)n(C)c3ccccc23)n1 | MTT | >125 µg/mL |
| Cc1nc(CN2CCn3c(nc(C(=O)NCc4ccc(F)cc4)c(O)c3=O)C2(C)C)no1 | microscopy | >1 µM |
| CCOP(=O)(OCC)C(N[C@@H](Cc1ccccc1)[C@@H](O)CN(CC(C)C)S(=O)(=O)c1ccc(OC)cc1)c1ccccn1 | MTT | 13.93 µg/mL |
| CC1=C[C@@H]2[C@@H]3C(=O)N(N)C(=O)[C@@H]3[C@H]1C[C@@H]2C(C)C | MTT | >100 µM |
| N#Cc1cc(Cl)cc(Oc2c(C(F)(F)F)ccn(CC(=O)Nc3ccc([N+](=O)[O-])cc3)c2=O)c1 | MTT | >254 µM |
| CCc1cc(NCc2cccnc2OC)c(=O)[nH]c1C | - | >50 µM |
| CC(C)(C)OC(=O)NCC(=O)N1CCC(O)C1 | - | >100 µM |
| CC1=C(C)[C@]2(C)C(C)[C@@]1(C)[C@@H]1C(=O)N(NC(=O)Nc3ccccc3)C(=O)[C@@H]12 | MTT | >42 µM |
| Clc1ccccc1-c1nnc2sc(CC34CC5CC(CC(C5)C3)C4)nn12 | MTT | ≥12.4 µg/mL |
| CC(=O)O[C@H]1[C@@H](OC(C)=O)[C@@]2(C)C3CCC4C(C)(C)[C@@H](OC(=O)CC(C)(C)C(=O)OCc5ccccc5)CC[C@@]45C[C@@]35CC[C@@]23CO[C@@]2(C(C)(C)O)CC[C@](C)(O2)[C@@H]13 | luminescence | 22.1 µM |
| O=C(NCc1ccc(F)cc1)c1nc2n(c(=O)c1O)CCN(C(=O)C(F)(F)F)C2 | microscopy | >1 µM |
| Brc1cccc(-c2nnc3sc(CC45CC6CC(CC(C6)C4)C5)nn23)c1 | MTT | >125 µg/mL |
| CCC(C)C#COc1c(C(C)C)c(=O)[nH]c2ccc(F)cc12 | - | 21.3 µM |
| COc1ccc(NC(=O)NN2C(=O)[C@@H]3[C@H](C2=O)[C@]2(C)C=C[C@@]3(C(C)C)CC2)cc1 | MTT | 57 µM |
| Cc1c(Cc2c(F)cccc2F)nc(NN2CCC(C)CC2)[nH]c1=O | MTT | >75 µM |
| CCc1cc(NCc2cc(C)c(C)cc2OC)c(=O)[nH]c1C | - | >50 µM |
| CC(C)c1c(OC#CC2CC2)c2cc(Cl)ccc2[nH]c1=O | - | 40 µM |
| Clc1cccc(-c2nnc3sc(CC45CC6CC(CC(C6)C4)C5)nn23)c1 | MTT | >125 µg/mL |
| CC(C)CC(NC(=O)OC(C)(C)C)C(=O)N1CCC(=O)C1 | - | >100 µM |
| CCc1cc(NCc2ccccc2OC)c(=O)[nH]c1C | - | >50 µM |
| Cn1c(Cn2ccc(C(F)(F)F)c(Oc3cc(Cl)cc(C#N)c3)c2=O)nn(COP(=O)(O)O)c1=O | MTT | >234 µM |
| CSCC[C@H](C(=O)N1CCNC[C@@H]1c1c[nH]c2ccccc12)N1CCCN(C(C)C)CC1 | MTT | >50 µM |
| N#Cc1cc(Cl)cc(Oc2c(C(F)(F)F)ccn(CC(=O)Nc3cnccn3)c2=O)c1 | MTT | ≥183 µM |
| CCOCn1c(Cc2cccc3ccccc23)c(CC)c(=O)[nH]c1=O | - | 46 µM |
| CCOP(=O)(OCC)C(N[C@@H](Cc1ccccc1)[C@@H](O)CN(CC(C)C)S(=O)(=O)c1ccc(OC)cc1)C(C)C | MTT | 13.68 µg/mL |
| N#Cc1cc(Cl)cc(Oc2c(C(F)(F)F)ccn(CC(=O)Nc3cccnc3)c2=O)c1 | MTT | 111 µM |
| Cc1ccc(C(C)C)c(O)c1 | MTT | 188 µg/mL |
| CCCc1c(OC#CC2CC2)c2cc(Cl)ccc2[nH]c1=O | - | 21.7 µM |
| Cc1cn([C@H]2O[C@@H](CO)C[C@@H]2N=[N+]=[N-])c(=O)[nH]c1=O | - | >100 µM |

A second listing of 6 rows from above:

smiles	method	result
CC(=O)O[C@H]1[C@@H](OC(C)=O)[C@@]2(C)C3CCC4C(C)(C)[C@@H](OC(=O)CC(C)(C)C(=O)OCc5ccccc5)CC[C@@]45C[C@@]35CC[C@@]23CO[C@@]2(C(C)(C)O)CC[C@](C)(O2)[C@@H]13	luminescence	22.1 µM
CC(=O)O[C@@H]1C2[C@]3(CC[C@@]45C[C@@]46CC[C@H](OC(=O)c4ccccc4)C(C)(C)[C@@H]6CCC5[C@]3(C)[C@@H]1OC(C)=O)CO[C@@]1(C(C)(C)O)CC[C@]2(C)O1	luminescence	>30 µM
CCOCn1c(Cc2cccc3ccccc23)c(CC)c(=O)[nH]c1=O	-	46 µM
CSCC[C@H](C(=O)N1CCNCC1c1c[nH]c2ccccc12)N1CCCN(C(C)C)CC1	MTT	>50 µM
CCCc1c(OC#CC2CC2)c2cc(Cl)ccc2[nH]c1=O	-	21.7 µM
CC(C)[C@]12C=C[C@](C)(CC1)[C@H]1C(=O)N(NC(=S)Nc3ccccc3)C(=O)[C@H]12	MTT	60 µM